Data as given in PubChem BioAssay AID504761 (Drosophila RNAi Screening Center, 2011).
Test: 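Insect host genes that dengue virus relies on to spread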 (primary screen). Cell system: D.Mel-2 cells from Drosophila. Reagent: long dsRNA against Drosophila genes. Challenge: infection with dengue virus type 2; dose and infection time not stated. Measured: 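Cells stained for dengue envelope protein and imaged; percent of infected cells per well on duplicate plates, ranked by infection, with stained nuclei counted for cell number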. Direction: infection score: higher = more virus-infected cells; cell count: higher = more cells in the well. Rule for the call: 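Very low infection ranking in both replicate wells (chance probability at most 0.065), then a retest showing infection dropped 1.5-fold or more at p below 0.05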. Calls: active = confirmed: knock-down lowers infection; inactive = not picked or not confirmed.
The screen tested about 22,000 reagents; this is an unselected part of those with a known target gene and a result. Over the whole deposit, 116 (0.52%) are marked active. 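Calls depend on retest data that are not deposited; infection was ranked per plate without normalising between plates; the unit of the infection score is not given.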 Raw values are not corrected between plates. Further read-outs or replicates are left out here. Not given: the amount of reagent, the time to read-out.

For Cp18 (Chorion protein 18) [SID104190912], what does the deposit list?
infection score, replicate 1: 0.75; cell count, replicate 1: 6782; activity call: inactive

For l(2)10685 (lethal (2) 10685) [SID104180457], what does the deposit list?
infection score, replicate 1: 1.8; cell count, replicate 1: 6166; activity call: inactive

How did the screen score l(2)10685 (lethal (2) 10685) [SID104206283]?
infection score, replicate 1: 4.44; cell count, replicate 1: 6874; activity call: inactive

With S1P (Site-1 protease) [SID104191602], what was measured?
infection score, replicate 1: 1.58; cell count, replicate 1: 6465; activity call: inactive

For CG14143 [SID104189938], how do the results read?
infection score, replicate 1: 7.46; cell count, replicate 1: 5493; activity call: inactive

Which result is listed for CG14143 [SID104205047]?
infection score, replicate 1: 2.86; cell count, replicate 1: 6004; activity call: inactive

How did the screen score CG6321 [SID104190415]?
infection score, replicate 1: 3.75; cell count, replicate 1: 6568; activity call: inactive

What is on record for Ir48c (Ionotropic receptor 48c) [SID104185946]?
infection score, replicate 1: 19.8; cell count, replicate 1: 5882; activity call: inactive

2 of these entries, reformatted.
gene knocked down | PubChem SID | infection score, replicate 1 | cell count, replicate 1 | activity call
CG14143 | SID104189938 | 7.46 | 5493 | inactive
CG14143 | SID104205047 | 2.86 | 6004 | inactive

The list goes on:
With ITP (Ion transport peptide) [SID104184014], how do the results read?
infection score, replicate 1: 6.43; cell count, replicate 1: 6038; activity call: inactive

For CaMKI (Calcium/calmodulin-dependent protein kinase I) [SID104196954], what was measured?
infection score, replicate 1: 1.2; cell count, replicate 1: 6190; activity call: inactive

With dachs [SID104181864], how do the results read?
infection score, replicate 1: 4.28; cell count, replicate 1: 6334; activity call: inactive

For dachs [SID104181983], how do the results read?
infection score, replicate 1: 5.12; cell count, replicate 1: 6186; activity call: inactive

How did the screen score dachs [SID104204665]?
infection score, replicate 1: 14.2; cell count, replicate 1: 6300; activity call: inactive

For dachs [SID104206947], how do the results read?
infection score, replicate 1: 7.23; cell count, replicate 1: 5451; activity call: inactive

What did the screen give for CG7768 [SID104190706]?
infection score, replicate 1: 10.1; cell count, replicate 1: 7033; activity call: inactive

Which result is listed for CG14105 [SID104189899]?
infection score, replicate 1: 0.56; cell count, replicate 1: 6561; activity call: inactive

With CG14518 [SID104194662], what was measured?
infection score, replicate 1: 1.04; cell count, replicate 1: 576; activity call: inactive

With CG14518 [SID104206158], what was measured?
infection score, replicate 1: 9.15; cell count, replicate 1: 6415; activity call: inactive

With cbt (cabut) [SID104180447], how do the results read?
infection score, replicate 1: 2.93; cell count, replicate 1: 6382; activity call: inactive

How did the screen score cbt (cabut) [SID104204661]?
infection score, replicate 1: 6.79; cell count, replicate 1: 5652; activity call: inactive

What is on record for Gdap2 [SID104186581]?
infection score, replicate 1: 5.83; cell count, replicate 1: 6248; activity call: inactive

For Gdap2 [SID104186582], how do the results read?
infection score, replicate 1: 14.4; cell count, replicate 1: 6152; activity call: inactive
